Paper PMC7918931 (Viruses, 2021)

Amino acid sequences for entries named in this document (tags omitted). Residues count along the entry.
UniProt Q9HAU4, 297-330: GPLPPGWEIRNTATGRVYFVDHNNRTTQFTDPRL

Biological target: T1, GST-SMURF2 WW domain #3 (UniProt Q9HAU4 297-330)
T1 construct: also called GST-SMURF2-WW3; SMURF2-3
Test: SPR
Details: both partners purified

MRRVILPTAPPEYMEAIK [eVP40-WT peptide (MRRVILPTAPPEYMEAI-K-biotin)] showed a Kd of 78 µM.
